Results taken from paper PMC1971568 (British Journal of Cancer, 1990).

Tests used:
[1] = for Generated active drug concentration: Table VI
[2] = for Active drug concentration: active drug 11 mg kg-1 i.p., Table II
[3] = ref Bagshawe et al., 1988; cited from earlier work
[4] = Stability in phosphate buffered saline (pH 7.4) at 37C, HPLC
[5] = for Active drug level: tumour bearing, prodrug 160 mg kg-1 i.v., Table VIII
[6] = plasma, conjugate then prodrug 16 mg kg-1 i.v. 72 h later, Table V
[7] = plasma, 41 µmol kg-1 i.p., Table I

O=C(O)c1ccc(N(CCCl)CCCl)cc1
Generated active drug concentration ([1]; kidney, 0.5 h): 3.75 µg/g
Generated active drug concentration ([1]; kidney, 1.0 h): 3.17 µg/g
Generated active drug concentration ([1]; kidney, 2.0 h): 1.85 µg/g
Generated active drug concentration ([1]; kidney, 4.0 h): 1.15 µg/g
Generated active drug concentration ([1]; liver, 0.5 h): 5.85 µg/g
Generated active drug concentration ([1]; liver, 1.0 h): 3.83 µg/g
Generated active drug concentration ([1]; liver, 2.0 h): 2.22 µg/g
Generated active drug concentration ([1]; liver, 4.0 h): 1.35 µg/g
Generated active drug concentration ([1]; lung, 0.5 h): 2.65 µg/g
Generated active drug concentration ([1]; lung, 1.0 h): 1.32 µg/g
Generated active drug concentration ([1]; lung, 2.0 h): 0.80 µg/g
Generated active drug concentration ([1]; lung, 4.0 h): 0.68 µg/g
Generated active drug concentration ([1]; plasma, 0.5 h): 6.23 µg/mL
Generated active drug concentration ([1]; plasma, 1.0 h): 3.35 µg/mL
Generated active drug concentration ([1]; plasma, 2.0 h): 1.94 µg/mL
Generated active drug concentration ([1]; plasma, 4.0 h): 1.18 µg/mL
AUC, area under plasma concentration versus time curve from zero to infinity ([1]; plasma, W14-F(ab')2:CPG2 1,000 U kg-1 i.v., prodrug 16 mg kg-1 i.v. 72 h later, Table V): 20500 ng·h/mL
Cl, total body clearance [1, 6]: 0.46 mL/min
Vd, apparent volume of distribution [1, 6]: 0.11 L
Generated active drug concentration ([1]; tumour, 0.5 h): 1.20 µg/g
Generated active drug concentration ([1]; tumour, 1.0 h): 0.84 µg/g
Generated active drug concentration ([1]; tumour, 2.0 h): 0.79 µg/g
Generated active drug concentration ([1]; tumour, 4.0 h): 0.54 µg/g
Active drug concentration ([2]; kidney, 0.5 h): 4.91 µg/g
Active drug concentration ([2]; kidney, 1.0 h): 2.60 µg/g
Active drug concentration ([2]; kidney, 2.0 h): 1.86 µg/g
Active drug level after prodrug alone ([2]; kidney, 2 h, prodrug alone 16 mg kg-1 i.p., Table III): 0.29 µg/g
Active drug level after prodrug alone ([2]; kidney, 4 h, prodrug alone 16 mg kg-1 i.p., Table III): 1.25 µg/g
Active drug concentration ([2]; liver, 0.5 h): 8.38 µg/g
Active drug concentration ([2]; liver, 1.0 h): 3.76 µg/g
Active drug concentration ([2]; liver, 2.0 h): 2.97 µg/g
Active drug level after prodrug alone ([2]; liver, 2 h, prodrug alone 16 mg kg-1 i.p., Table III): 0.52 µg/g
Active drug concentration ([2]; lung, 0.5 h): 2.63 µg/g
Active drug concentration ([2]; lung, 1.0 h): 1.28 µg/g
Active drug concentration ([2]; lung, 2.0 h): 0.93 µg/g
Active drug level after prodrug alone ([2]; lung, 2 h, prodrug alone 16 mg kg-1 i.p., Table III): 0.21 µg/g
Active drug level after prodrug alone ([2]; lung, 4 h, prodrug alone 16 mg kg-1 i.p., Table III): 0.81 µg/g
Active drug concentration ([2]; plasma, 0.5 h): 5.63 µg/mL
Active drug concentration ([2]; plasma, 1.0 h): 3.33 µg/mL
Active drug concentration ([2]; plasma, 2.0 h): 2.31 µg/mL
Active drug level after prodrug alone ([2]; plasma, 2 h, prodrug alone 16 mg kg-1 i.p., Table III): 0.30 µg/mL
Cl, total body clearance [2, 7]: 0.32 mL/min
Vd, apparent volume of distribution [2, 7]: 0.05 L
AUC, area under plasma concentration versus time curve from zero to infinity ([2]; plasma, prodrug 16 mg kg-1 or active drug 11 mg kg-1 (41 µmol kg-1) i.p., Table I): 18200 ng·h/mL
Time after injection of prodrug until active drug measurable ([2]; prodrug alone 16 mg kg-1 i.p., no conjugate, at 2 h not all mice had detectable levels): at least 2 h
Active drug concentration ([2]; tumour, 0.5 h): 1.43 µg/g
Active drug concentration ([2]; tumour, 1.0 h): 1.03 µg/g
Active drug concentration ([2]; tumour, 2.0 h): 1.09 µg/g
Active drug level after prodrug alone ([2]; tumour, 2 h, prodrug alone 16 mg kg-1 i.p.): not detectable
Active drug level after prodrug alone ([2]; tumour, 4 h, prodrug alone 16 mg kg-1 i.p., Table III): 0.20 µg/g
Plasma peak level of active drug generated from prodrug in the presence of the conjugate [3]: 6.8 µg/mL
Stability in organic solvents and aqueous solutions [4]: stable
Active drug level ([5]; liver, 5 min): 24.5 µg/g
Active drug level ([5]; liver, 15 min): 22.9 µg/g
Active drug level ([5]; liver, 30 min): 21.7 µg/g
Active drug level ([5]; lung, 5 min): 28.3 µg/g
Active drug level ([5]; lung, 15 min): 17.6 µg/g
Active drug level ([5]; lung, 30 min): 14.4 µg/g
Active drug level ([5]; plasma, 5 min): 109.0 µg/mL
Active drug level ([5]; plasma, 15 min): 50.1 µg/mL
Active drug level ([5]; plasma, 30 min): 32.8 µg/mL
Difference between active drug levels in tumour bearing and non-tumour bearing mice ([5]; plasma, liver and lung): no significant difference
Active drug level ([5]; tumour, 5 min): 11.0 µg/g
Active drug level ([5]; tumour, 15 min): 10.3 µg/g
Active drug level ([5]; tumour, 30 min): 11.5 µg/g

Where two headings read alike, the source gives them in different places.
